Where two headings read alike, the source gives them in different places.
Target: SARS-CoV-2 helicase (nsp13) (Severe acute respiratory syndrome coronavirus 2, UniProt P0DTD1)
Format: biochemical

## FPA-124
read-out: DTT Helicase IC50
  IC50: 16.9 µM
read-out: Helicase IC50
  IC50: 0.13 µM
